In paper PMC6934550 (Scientific Reports, 2019):
Counter-ions that a name gives are not always drawn.

Test system: EBOV/Mak
Design: species or system Rhesus macaques
Conditions: rhesus monkey, in vivo

CCN(CC)Cc1cc(Nc2ccnc3cc(Cl)ccc23)ccc1O [Amodiaquine dihydrochloride hydrate, amodiaquine dihydrochloride dihydrate]
survival / efficacy: no in vivo efficacy
